Data: US20090221624A1, “4-AMINOQUINOLINE COMPOUNDS FOR TREATING VIRUS-RELATED CONDITIONS” (priority 2005, published 2009)

Experiments:
EBOV minigenome = assay type: cell-based, Ebola virus; details: ratio CC50 / EC50
DNG (D2-hRuPac cells) = assay: DNG antiviral activity, D2-hRuPac cells, Renilla luciferase; assay type: cell-based, Dengue fever virus; details: therapeutic index CC50/EC50, DNG
SINV (SR19-F-luc cells) = assay: SINV antiviral activity, SR19-F-luc cells, Firefly luciferase; assay type: cell-based, Sindbis virus; details: therapeutic index CC50/EC50, SINV

Compound: c1ccc2cc(Nc3c4ccccc4nc4ccccc34)ccc2c1 [Compound 1]
- EBOV TI (EBOV minigenome): 1.33
- DNG TI (DNG (D2-hRuPac cells)): 6.63
- SINV TI (SINV (SR19-F-luc cells)): 1.69

Compound: CCc1ccccc1Nc1c2ccccc2nc2ccccc12 [Compound 2]
- EBOV TI (EBOV minigenome): 0.85
- DNG TI (DNG (D2-hRuPac cells)): 1.55
- SINV TI (SINV (SR19-F-luc cells)): 1.71

Compound: Cc1ccc2nc(C)cc(Nc3ccccc3)c2c1 [Compound 3]
- EBOV TI (EBOV minigenome): 0.8
- DNG TI (DNG (D2-hRuPac cells)): 1.53
- SINV TI (SINV (SR19-F-luc cells)): 40.56

Compound: CCOC(=O)c1ccc(Nc2cc(C)nc3c2ccc2ccccc23)cc1 [Compound 4]
- EBOV TI (EBOV minigenome): 1.23
- DNG TI (DNG (D2-hRuPac cells)): 2.23
- SINV TI (SINV (SR19-F-luc cells)): 0.97

Compound: c1cncc(CNc2c3ccccc3nc3ccccc23)c1 [Compound 5]
- EBOV TI (EBOV minigenome): 1.87
- DNG TI (DNG (D2-hRuPac cells)): 7.84
- SINV TI (SINV (SR19-F-luc cells)): 4.07

Compound: Cc1ccc(Nc2cc(C)nc3ccc(C)cc23)cc1 [Compound 6]
- SINV TI (SINV (SR19-F-luc cells)): 15.3

Compound: COc1ccc(Nc2cc(C)nc3c2ccc2ccccc23)cc1 [Compound 7]
- EBOV TI (EBOV minigenome): 6.94
- DNG TI (DNG (D2-hRuPac cells)): 4.41
- SINV TI (SINV (SR19-F-luc cells)): 1

Compound: COC(=O)c1ccc(Nc2c3c(nc4ccccc24)CCC3)cc1 [Compound 8]
- EBOV TI (EBOV minigenome): 1.38
- DNG TI (DNG (D2-hRuPac cells)): 1.22
- SINV TI (SINV (SR19-F-luc cells)): 3.1

Compound: Cc1ccc(Nc2cc(C)nc3c2ccc2ccccc23)cc1 [Compound 9]
- EBOV TI (EBOV minigenome): 1.19
- DNG TI (DNG (D2-hRuPac cells)): 0.97
- SINV TI (SINV (SR19-F-luc cells)): 0.97

Compound: c1coc(CNc2c3c(nc4ccccc24)CCC3)c1 [Compound 10]
- EBOV TI (EBOV minigenome): 1.35
- DNG TI (DNG (D2-hRuPac cells)): 2.37
- SINV TI (SINV (SR19-F-luc cells)): 0.84

Compound: Cc1cccc(Nc2c3c(nc4ccccc24)CCC3)c1 [Compound 11]
- EBOV TI (EBOV minigenome): 1.11
- SINV TI (SINV (SR19-F-luc cells)): 10.27

Compound: C=CCNc1c2c(nc3ccccc13)CCC2 [Compound 12]
- EBOV TI (EBOV minigenome): 1.58
- DNG TI (DNG (D2-hRuPac cells)): 1.04
- SINV TI (SINV (SR19-F-luc cells)): 10.4

Compound: CCOC(=O)c1ccc2ncc(C(=O)OCC)c(NCc3ccco3)c2c1 [Compound 13]
- EBOV TI (EBOV minigenome): 5.87
- DNG TI (DNG (D2-hRuPac cells)): 3.37
- SINV TI (SINV (SR19-F-luc cells)): 0.79

Compound: COC(=O)c1ccc(Nc2cc(C)nc3cc(Cl)ccc23)cc1 [Compound 14]
- EBOV TI (EBOV minigenome): 0.82
- DNG TI (DNG (D2-hRuPac cells)): 0.99
- SINV TI (SINV (SR19-F-luc cells)): 3.05

Compound: Cc1ccc2nc(C)cc(N3CCC(C)CC3)c2c1 [Compound 15]
- EBOV TI (EBOV minigenome): 1.03
- DNG TI (DNG (D2-hRuPac cells)): 1.01
- SINV TI (SINV (SR19-F-luc cells)): 13.07

Compound: Cc1ccc2nc3c(c(Nc4ccc(O)cc4)c2c1)CCC3 [Compound 16]
- EBOV TI (EBOV minigenome): 1.14
- DNG TI (DNG (D2-hRuPac cells)): 3.62
- SINV TI (SINV (SR19-F-luc cells)): 22.46

Compound: CC(=O)c1cccc(Nc2cc(C)nc3ccccc23)c1 [Compound 17]
- EBOV TI (EBOV minigenome): 1
- DNG TI (DNG (D2-hRuPac cells)): 1
- SINV TI (SINV (SR19-F-luc cells)): 19.58

Compound: Cc1ccc2nc(C)cc(NCc3ccccc3)c2c1 [Compound 18]
- DNG TI (DNG (D2-hRuPac cells)): 1.79
- SINV TI (SINV (SR19-F-luc cells)): 3.68

Compound: CCOC(=O)c1cnc2c(Cl)c(Cl)ccc2c1NCc1ccco1 [Compound 19]
- EBOV TI (EBOV minigenome): 0.28

Compound: COc1ccc(Nc2cc(C)nc3ccccc23)cc1 [Compound 20]
- EBOV TI (EBOV minigenome): 1.5
- DNG TI (DNG (D2-hRuPac cells)): 1.79
- SINV TI (SINV (SR19-F-luc cells)): 17.52

Compound: Cc1ccc2nc3c(c(Nc4ccc(N5CCOCC5)cc4)c2c1)CCC3 [Compound 21]
- EBOV TI (EBOV minigenome): 0.94
- DNG TI (DNG (D2-hRuPac cells)): 2.22
- SINV TI (SINV (SR19-F-luc cells)): 3.7

Compound: COc1cccc2c(Nc3ccc4c(c3)OCCO4)cc(C)nc12 [Compound 22]
- EBOV TI (EBOV minigenome): 10.78
- DNG TI (DNG (D2-hRuPac cells)): 1.61
- SINV TI (SINV (SR19-F-luc cells)): 0.79

Compound: Cc1ccc(Nc2c3c(nc4ccc(C)cc24)CCC3)cc1 [Compound 28]
- SINV TI (SINV (SR19-F-luc cells)): 16.04

Compound: CCOc1ccc2nc(C)cc(Nc3ccc(Cl)cc3)c2c1 [Compound 59]
- EBOV TI (EBOV minigenome): 6.56

Compound: CCOC(=O)c1cnc2c(OC)cccc2c1NCc1ccccc1 [Compound 62]
- EBOV TI (EBOV minigenome): 0.58

Compound: CCOC(=O)c1cnc2c(OC)cccc2c1NCc1ccco1 [Compound 67]
- EBOV TI (EBOV minigenome): 1.49

Compound: CCOC(=O)c1cnc2c(OC)cccc2c1NCc1cccnc1 [Compound 68]
- EBOV TI (EBOV minigenome): 0.74

Compound: CCOC(=O)c1cnc2c(OC)cccc2c1NCCCO [Compound 70]
- EBOV TI (EBOV minigenome): 0.66

Compound: COc1ccccc1Nc1cc(C)nc2c(C)c(C)cc(N)c12 [Compound 77]
- EBOV TI (EBOV minigenome): 0.7
